Measured values from several laboratories, pooled; numbers as filed in NIAID ChemDB.

All rows: toxicity to cultured cells; endpoint: CC50

CCn is the concentration with n% toxicity to the cells. Two numbers with a dash give a range or band. Conditions beyond the fields shown may differ between rows. Blank or dashed fields: not listed here.

| SMILES | cell line | method | result |
|---|---|---|---|
| Cc1noc(C2(NC(=O)c3c(C)c(C(=O)C(=O)Nc4cccnc4)n(C)c3C)CC2)n1 | HepG2 | MTT | >30 µM |
| CC1=C(C)[C@@](C)(CO)C[C@H]1n1cnc2c(N)ncnc21 | DAVIS | - | >100 µg/mL |
| CCN(CC)c1ccc(-c2cn3c(=O)c4ncn([C@H]5CC(N=[N+]=[N-])[C@@H](CO)O5)c4nc3[nH]2)cc1 | PBM | - | >100 µM |
| Cc1ccc2nc(Nc3cccc([N+](=O)[O-])c3)sc2c1 | Ava5 | MTS | 303 µM |
| Cc1cc(NC(=O)c2c(C)c(C(=O)C(=O)N[C@H]3CN[C@H](C(=O)O)C3)n(C)c2C)ccc1F | HepG2 | MTT | >30 µM |
| NC(N)=Nc1cccc(OCc2ccc(Br)cc2)c1 | HUT4-3/SX22-1 | - | <100 µM |
| COc1ccc(C[C@H](N)C(=O)N[C@H]2[C@@H](O)[C@H](n3cnc4c(N(C)C)ncnc43)O[C@@H]2CO)cc1 | HEPG2 (HB-8065) | WST | 0.36 µg/mL |
| O=S(=O)(c1cccc2cnccc12)N1CCNCC1 | OM-10.1 | - | 11.5 µg/mL |
| [N-]=C=Nc1nncs1 | PRMK | - | 1 µg/mL |
| OCC12C(c3ccccc3)C3(CO)C4N(Cc5ccccc5)C1C1(CO)C(C5C=CC=CC5)C4(CO)C3N(Cc3ccccc3)C21 | EPG85-257P | - | 80 µM |
| Cc1cn([C@H]2C=C[C@@H](COC(=O)CCCCCCCCCCCBr)O2)c(=O)[nH]c1=O | P4R5 | - | >200 µM |
| CC(C)N(Cc1cccc(OCCCCCC(=O)OC(=O)O)c1)C(=O)c1ccc(-c2cccc(OC(F)(F)F)c2)cc1 | HEK 293 | - | >20 µM |
| Cc1cc(Cl)cc(NC(=O)c2c(C)c(C(=O)C(=O)NC3(C)CCC(O)CC3)n(C)c2C)c1 | HepG2 | MTT | 5–30 µM |
| CCCCCCCCCCCCCC(=O)OC[C@@H]1C=C[C@H](n2cc(C)c(=O)[nH]c2=O)O1 | P4R5 | - | >200 µM |
| N=C(N)c1cccc(OCc2ccccc2)c1 | HUT4-3/SX22-1 | - | <100 µM |
| Cc1ccc(Nc2nc3ccc(C)cc3s2)c(C)c1 | Ava5 | MTS | 140 µM |
| CC1(C)CC[C@@]2(C(=O)NCc3cn(CCCCCCn4cc(CNC(=O)[C@]56CCC(C)(C)CC5C5=CCC7[C@@]8(C)CC[C@H](O)C(C)(C)C8CC[C@@]7(C)[C@]5(C)C[C@H]6O)nn4)nn3)C(C1)C1=CCC3[C@@]4(C)CC[C@H](O)C(C)(C)C4CC[C@@]3(C)[C@]1(C)C[C@H]2O | 293T | resazurin | >100 µM |
| Cn1cc2c3cc(Br)ccc3nc-2c2cc(Cl)ccc21 | 3T3 | MTT | 9.005 µM |
| Cc1cc(C)n2nc(S(=O)(=O)Nc3ccccc3C(F)(F)F)nc2n1 | K562 (CRL-1573) | WST | >128 µg/mL |
| Cc1cc(NC(=O)c2c(C)c(C(=O)C(=O)Nc3ccncc3N3CCOCC3)n(C)c2C)ccc1F | HepG2 | MTT | >30 µM |
| Cc1cc(C2CC2)n2nc(S(=O)(=O)Nc3c(C)ccc(Cl)c3C)nc2n1 | HEPG2 (HB-8065) | WST | >128 µg/mL |
| Cc1ccc2nc(Nc3cccc(Cl)c3)sc2c1 | Ava5 | MTS | 80 µM |
| C[C@@]1(O)[C@H](O)[C@@H](CO)O[C@H]1n1cc(C#CCN)c2c(N)ncnc21 | ET | - | >50 µM |
| CCOC(=O)CCCCCOc1cccc(CN(C(=O)c2ccc(-c3ccc4c(c3)OCCO4)cc2)C(C)C)c1 | HEK 293 | - | >20 µM |
| Cn1cc2c3cc(Br)ccc3nc-2c2cc(Br)ccc21 | 3T3 | MTT | 2.585 µM |
| NC(N)=Nc1cccc(OCc2ccc(Cl)cc2)c1 | HUT4-3/SX22-1 | - | <100 µM |
| O=C(O)c1cc(-c2ccco2)nc2ccccc12 | HepG2 | - | >20 µM |
| Cc1cc(NC(=O)c2c(C)c(C(=O)C(=O)NC3CCC(OCC(=O)NCCOCCOCCOCCOCCOCCOCCOCCNC(=O)CCCCC4SCC5NC(=O)NC54)CC3)n(C)c2C)ccc1F | PCR | MTT | >30 µM |
| Cc1ccc2c3cn(C)c4ccccc4c-3nc2c1 | 3T3 | MTT | 2.067 µM |
| O=c1c2ncn([C@H]3C=C[C@@H](CO)C3)c2nc2[nH]c(-c3ccsc3)cn12 | PBM | - | >100 µM |
| Cc1cc(C2CC2)n2nc(S(=O)(=O)Nc3c(Br)cccc3Br)nc2n1 | K562 (CRL-1573) | WST | >128 µg/mL |
| COC(=O)c1cc(-c2cccs2)nc2ccccc12 | HEK 293 | - | >20 µM |
| Cc1cc(NC(=O)c2c(C)c(C(=O)C(=O)NC3CCC(S(C)(=O)=O)CC3)n(C)c2-c2cccnc2)ccc1F | HepG2 | MTT | >30 µM |
| COc1cc(OC)c2c(=O)c3ccccc3n(C)c2c1 | OM-10.1 | - | 8 µg/mL |
| CC(C)N(Cc1cccc(OCCCCCC(=O)OC(=O)O)c1)C(=O)c1ccc(-c2ccco2)cc1 | HEK 293 | - | >20 µM |
| Cn1c2ccccc2c(=O)c2c(O)cccc21 | U-937 | - | 35 µg/mL |
| CC(=O)N1CCC(CO)(NC(=O)C(=O)c2c(C)c(C(=O)Nc3ccc(F)c(C)c3)c(C)n2C)CC1 | HepG2 | MTT | >30 µM |
| C[C@@]1(O)[C@H](O)[C@@H](CO)O[C@H]1n1cc(C#CCO)c2c(N)ncnc21 | ET | - | >50 µM |
| CC(C)N(Cc1cccc(OCCCCCC(=O)O)c1)C(=O)c1ccc(-c2ccc3c(c2)OCO3)cc1 | RAJI | - | >20 µM |
| Cc1c(C(=O)NC23CCC(O)(CC2)CC3)c(C)n(C)c1C(=O)C(=O)Nc1cccnc1 | HepG2 | MTT | >30 µM |

Repeating the final 4 entries:

{"SMILES": "CC(=O)N1CCC(CO)(NC(=O)C(=O)c2c(C)c(C(=O)Nc3ccc(F)c(C)c3)c(C)n2C)CC1", "cell line": "HepG2", "method": "MTT", "result": ">30 µM"}
{"SMILES": "C[C@@]1(O)[C@H](O)[C@@H](CO)O[C@H]1n1cc(C#CCO)c2c(N)ncnc21", "cell line": "ET", "result": ">50 µM"}
{"SMILES": "CC(C)N(Cc1cccc(OCCCCCC(=O)O)c1)C(=O)c1ccc(-c2ccc3c(c2)OCO3)cc1", "cell line": "RAJI", "result": ">20 µM"}
{"SMILES": "Cc1c(C(=O)NC23CCC(O)(CC2)CC3)c(C)n(C)c1C(=O)C(=O)Nc1cccnc1", "cell line": "HepG2", "method": "MTT", "result": ">30 µM"}